Experimental data: US11407715B2, “Substituted indoline derivatives as dengue viral replication inhibitors” (JANSSEN PHARMACEUTICALS, INC., priority 2017, dated 2022)
The index is printed as in the source, without its formula.

Tests used:
Type in all cases: cell-based, Dengue virus
DENV-4 strain H241 = experiment: Tetravalent RT-qPCR assay, serotype 4; conditions: RT-qPCR serotype 4 H241; selectivity index
Method: (§1) The antiviral activity of the compounds of the invention was tested against DENV-1 strain TC974#666 (NCPV), DENV-2 strain 16681, DENV-3 strain H87 (NCPV) and DENV-4 strain H241 (NCPV) in a RT-qPCR assay. Therefore, Vero cells were infected with either DENV-1, or -2, or -3, or -4 in the presence or absence of test compounds. At day 3 post-infection, the cells were lysed and cell lysates were used to prepare cDNA of both a viral target (the 3′UTR of DENV; Table 2) and a cellular reference gene (β-actin, Table 2). Subsequently, a duplex real time PCR was performed on a Lightcycler480 instrument. The generated Cp value is inversely proportional to the amount of RNA expression of these targets. Inhibition of DENV replication by a test compound results in a shift of Cp's for the 3′UTR gene. On the other hand, if a test compound is toxic to the cells, a similar effect on β-actin expression will be observed. The comparative ΔΔCp method is used to calculate ECs50, which is based on the relative gene expression of the target gene (3′UTR) normalized with the cellular housekeeping gene (β-actin). In addition, CC50 values are determined based on the Cp values acquired for the housekeeping gene β-actin.
(§2) The culture medium consisted of minimal essential medium supplemented with 2% of heat-inactivated fetal calf serum, 0.04% gentamycin (50 mg/mL) and 2 mM of L-glutamine. Vero cells, obtained from ECACC, were suspended in culture medium and 75 μL/well was added in 96-well plates (10000 cells/well), which already contain the antiviral compounds. […] In addition, each plate contains wells which are assigned as virus controls (containing cells and virus in the absence of compound) and cell controls (containing cells in the absence of virus and compound). Once the cells were added in the plates, the plates were incubated in a fully humidified incubator (37° C., 5% CO2) until the next day. Dengue viruses serotype-1, 2, 3 and 4 were diluted in order to obtain a Cp of ˜22-24 in the assay. Therefore, 25 μL of virus suspension was added to all the wells containing test compound and to the wells assigned as virus control. In parallel, 25 μL of culture medium was added to the cell controls. Next, the plates were incubated for 3 days in a fully humidified incubator (37° C., 5% CO2). After 3 days, the supernatant was removed from the wells and the cells were washed twice with ice-cold PBS (˜100 μL). The cell pellets within the 96-well plates were stored at −80° C. for at least 1 day. Next, RNA was extracted using the Cells-to-CT™ lysis kit, according to the manufacturer's guideline (Life Technologies). The cell lysates can be stored at −80C or immediately used in the reverse transcription step.
(§3) In preparation of the reverse transcription step, mix A (table 3A) was prepared and 7.57 μL/well was dispensed in a 96-well plate. After addition of 5 μL of the cell lysates, a five minute denaturation step at 75° C. was performed (table 3B). Afterwards, 7.43 μL of mix B was added (table 3C) and the reverse transcription step was initiated (table 3D) to generate cDNA.
(§4) Finally, a RT-qPCR mix was prepared, mix C (table 4A), and 22.02 μL/well was dispensed in 96-well LightCycler qPCR plates to which 3 μL of cDNA was added and the qPCR was performed according to the conditions in table 4B on a LightCycler 480.
(§5) Using the LightCycler software and an in-house LIMS system, dose response curves for each compound were calculated and the half maximal effective concentration (EC50) and the half maximal cytotoxic concentration (CC50) were determined (Tables 5-8).

DENV-3 strain H87 = experiment: Tetravalent RT-qPCR assay, serotype 3; conditions: RT-qPCR serotype 3 H87; selectivity index
Method: as §1, §2, §3, §4, §5

DENV-2 strain 16681 = experiment: Tetravalent RT-qPCR assay, serotype 2; conditions: RT-qPCR serotype 2 16681; selectivity index
Method: as §1, §2, §3, §4, §5

DENV-1 strain TC974#666 = experiment: Tetravalent RT-qPCR assay, serotype 1; conditions: RT-qPCR serotype 1 TC974#666; selectivity index
Method: as §1, §2, §3, §4, §5

| SMILES | SI (DENV-4 strain H241) | SI (DENV-3 strain H87) | SI (DENV-2 strain 16681) | SI (DENV-1 strain TC974#666) |
| --- | --- | --- | --- | --- |
| COc1cc(NC2CC(C(=O)O)C2)cc(NC(C(=O)N2CCc3ccc(OC(F)(F)F)cc32)c2ccc(Cl)cc2)c1 (single isomer, unassigned) [Compound 33D] | 256 | >732 | >6620 | >7130 |
| COc1cc(NC(C(=O)N2CCc3cc(OC)c(C(F)(F)F)cc32)c2ccc(Cl)cc2)cc(OCCC(C)(C)C(=O)O)c1 (single isomer, unassigned) [Compound 21B] | 115 | >357 | >12700 | >1950 |
| COc1cc(NC(C(=O)N2CCc3ccc(OC(F)(F)F)cc32)c2ccc(Cl)cc2OC)cc(OCC2CC2C(=O)O)c1 (stereo not drawn) [Compound 19BB] | 905 | >1910 | >14100 | >13300 |
| COc1cc(NC(C(=O)N2CCc3cc(OC)c(C(F)(F)F)cc32)c2ccc(Cl)cc2)cc(OCC2CC(C(=O)O)C2)c1 (stereo not drawn) [Compound 24B] | 115 | >123 | >11300 | >898 |
| COc1cc(NC(C(=O)N2CCc3ccc(OC(F)(F)F)cc32)c2ccc(Cl)cc2)cc(OCC2(F)CC2C(=O)O)c1 (stereo not drawn) [Compound 28AB] | 158 | >277 | >5530 | >4260 |
| COc1cc(NC(C(=O)N2CCc3ccc(OC(F)(F)F)cc32)c2ccc(Cl)cc2OC)cc(OCCC(C)C(=O)O)c1 (single isomer, unassigned) [Compound 17C] | 95 | >401 | >13700 | >8230 |
| COc1cc(NC(C(=O)N2CCc3ccc(OC(F)(F)F)cc32)c2ccc(Cl)cc2OC)cc(OCC2CC2C(=O)O)c1 (stereo not drawn) [Compound 19AB] | 8200 | >8790 | >92300 | >56300 |
| COc1cc(NC(C(=O)N2CCc3ccc(OC(F)(F)F)cc32)c2ccc(Cl)cc2)cc(OCCC(C)(C)C(=O)O)c1 (single isomer, unassigned) [Compound 2A] | 125 | >390 | >6500 | >7920 |
| COc1cc(NC(C(=O)N2CCc3ccc(OC(F)(F)F)cc32)c2ccc(Cl)cc2)cc(OCCC(=O)O)c1 (single isomer, unassigned) [Compound 12B] | 318 | >401 | >8920 | >8660 |
| COc1cc(NC(C(=O)N2CCc3ccc(OC(F)(F)F)cc32)c2ccc(Cl)cc2)cc(OCCC(C)C(=O)O)c1 (single isomer, unassigned) [Compound 1D] | 280 | >949 | >9200 | >11400 |
| COc1cc(NC(C(=O)N2CCc3cc(F)c(OC(F)(F)F)cc32)c2ccc(Cl)cc2)cc(OC2CC(C(=O)O)C2)c1 (single isomer, unassigned) [Compound 27B] | 9330 | >22600 | >92800 | >114234 |
| COc1cc(NC(C(=O)N2CCc3ccc(OC(F)(F)F)cc32)c2ccc(Cl)cc2)cc(OCC2(F)CC2C(=O)O)c1 (stereo not drawn) [Compound 29BB] | 2790 | >3050 | >60200 | >30400 |
